Measured values as given in PubChem BioAssay AID266 (DTP/NCI, 2004).
Where “and” joins values, the source holds several entries; their conditions need not be identical. Equal values may be shown once. Results filed as inconclusive are left out.

Test system: Nude mice, LX-1 lung xenograft intrarenal, tumor weight T/C
Assay: NCI In Vivo Anticancer Drug Screen. Data for tumor model Human Lung LX-1 Xenograft (intrarenal inoculation) in NU/NU BALB/C (nude) mice
Settings: endpoint: mean tumor weight change, schedule: Q04DX003 (ip), vehicle: saline, higher = larger tumour
Experimental: The antitumor activity of compounds was measured in mice bearing transplantable tumors. Survival or tumor size were measured and the results are expressed as the measurement made in the treated group (T) divided by the measurement made in the vehicle treated control group (C). The tumor model used in this assay is Human Lung LX-1 Xenograft (intrarenal inoculation) in NU/NU BALB/C (nude) mice

`O=P1(N(CCCl)CCCl)NC(SCCS(=O)(=O)O)CCO1` (centres undefined) was tested, and the T/C (dose: 37.5 mg/kg/injection) was 60 % of control and 81 % of control, the T/C (dose: 75.0 mg/kg/injection) was 59 % of control and 61 % of control and the T/C (dose: 150.0 mg/kg/injection) was 33 % of control and 40 % of control. The T/C (dose: 300.0 mg/kg/injection) was 14 % of control.
